According to patent US20250026796A1 (priority 2022, published 2025):

Test system: 2E-N antibody
Assay: ELISA comparing affinity of 2E-N antibody to 2ED and wild-type peptides
Details: 2ED compared to wild-type

## MYSFVSDDTGTLIVNSVL
  Binding affinity of the 2E antibody to peptide: reduces the binding affinity
